Source: PMC10434001, “Glycosylated, Lipid-Binding, CDR-Like Domains of SARS-CoV-2 ORF8 Indicate Unique Sites of Immune Regulation” (Microbiology Spectrum, 2023)

Biological target: SARS-CoV-2 ORF8 ([…]) with N-terminal 8×His tag and maltose binding protein (MBP) tag (SARS-CoV-2)
Assay: SEC

## SARS-CoV-2 ORF8 ([…]) with N-terminal 8×His tag and maltose binding protein (MBP) tag (a stretch of the chain, letters omitted) (domain or fragment; N-glycosylation (N-acetyl-beta-d-glucosamine, NAG) at N78; N-glycosylation (N-acetyl-beta-d-glucosamine, NAG) at N78; other documents disagree on this pair)
  stoichiometry N: 2
